Patent US20040072990A1, “Antimicrobial peptides with reduced hemolysis and methods of their use” (priority 2002, published 2004)
Residues, ends and D or L forms follow the SMILES beside them.

Assay: Secondary structure by CD spectroscopy
Assay type: physicochemical
Conditions: for conformation in phosphate buffer: 30 μM peptide, 10 mM sodium phosphate buffer pH 7.2

Compound: CC[C@H](C)[C@@H]1NC(=O)[C@H](Cc2c[nH]c3ccccc23)NC(=O)[C@H](CCCCN)NC(=O)[C@H]([C@@H](C)CC)NC(=O)[C@H](Cc2c[nH]c3ccccc23)NC(=O)[C@H](CCCCN)NC1=O [Pac-305 C, K W I K W I] (cyclo(KWIKWI); ring closure inferred)
- conformation in phosphate buffer: unordered
- conformation in SDS: unordered

Compound: CC[C@H](C)[C@@H]1NC(=O)[C@H](Cc2c[nH]c3ccccc23)NC(=O)[C@H](CCCNC(=N)N)NC(=O)[C@H](C(C)C)NC(=O)[C@H](Cc2c[nH]c3ccccc23)NC(=O)[C@H](CCCNC(=N)N)NC(=O)[C@H](CCCNC(=N)N)NC(=O)[C@H](Cc2c[nH]c3ccccc23)NC(=O)[C@H](CCCCN)NC1=O [Pac-525 C, K W R R W V R W I] (cyclo(KWRRWVRWI); ring closure inferred)
- conformation in phosphate buffer: unordered
- conformation in SDS: unordered

Compound: CC[C@H](C)[C@H](NC(=O)[C@H](Cc1ccccc1)NC(=O)[C@H](CCCCN)NC(=O)[C@@H](NC(=O)[C@H](Cc1ccccc1)NC(=O)[C@H](CCCCN)NC(=O)[C@@H](NC(=O)[C@H](Cc1ccccc1)NC(=O)[C@@H](N)CCCCN)[C@@H](C)CC)[C@@H](C)CC)C(N)=O [Pac-522 L, K F I K F I K F I] (H-KFIKFIKFI-NH2; N-terminus assumed)
- conformation in phosphate buffer: unordered
- conformation in SDS: slightly ordered

Compound: CC[C@H](C)[C@@H]1NC(=O)[C@H](Cc2c[nH]c3ccccc23)NC(=O)[C@H](CCCNC(=N)N)NC(=O)[C@H](CCCNC(=N)N)NC(=O)[C@H](Cc2c[nH]c3ccccc23)NC(=O)[C@H](CCCCN)NC1=O [Pac 301 C, K W R R W I] (cyclo(KWRRWI); ring closure inferred)
- conformation in phosphate buffer: unordered
- conformation in SDS: unordered

Compound: CC[C@H](C)[C@@H]1NC(=O)[C@H](Cc2ccccc2)NC(=O)[C@H](CCCCN)NC(=O)[C@H]([C@@H](C)CC)NC(=O)[C@H](Cc2ccccc2)NC(=O)[C@H](CCCCN)NC(=O)[C@H]([C@@H](C)CC)NC(=O)[C@H](Cc2ccccc2)NC(=O)[C@H](CCCCN)NC1=O [Pac-522 C, K F I K F I K F I] (cyclo(KFIKFIKFI); ring closure inferred)
- conformation in phosphate buffer: unordered
- conformation in SDS: unordered
